Values from PubChem BioAssay AID624099 (ICCB-Longwood, 2012)

Assay: 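Host factors E2 relies on to silence an HPV18 LCR reporter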 (primary screen)
System: human C33A cervical carcinoma cells (HPV-negative) stably expressing BPV1 E2 and an HPV18 LCR luciferase reporter
Reagent: siRNA pool against human genes, 40 nM
Time to read-out: 72 h
Read-out: 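Per-well luciferase luminescence, z-scored on each plate against the plate mean and SD with control wells left out, then averaged across three replicate plates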
Reading the numbers: mean z-score and z-score: higher = stronger reporter signal, weaker E2 silencing
Hit rule: 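Mean z ≥ 2 together with z ≥ 2 in two or more of the three replicates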
Here is one part, drawn at random, of about 21,000 reagents. 497 of all reagents (2.4%) count as active. 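Higher z means weaker E2 silencing; only reporter increases were scored, and knock-downs that hurt cell survival may mask genuine repressor factors.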 A number with no mark means an inactive call.

Depletion of ERRFI1 (ERBB receptor feedback inhibitor 1) came out at: mean z-score -0.39; z-score, replicate A = -0.41; z-score, replicate B = -0.3; z-score, replicate C = -0.46. Knock-down of ARL2 (ARF like GTPase 2) resulted in: mean z-score 1.58; z-score, replicate A = 1.61; z-score, replicate B = 1.43; z-score, replicate C = 1.71. CASC15 (cancer susceptibility 15) showed mean z-score -0.16; z-score, replicate A = -0.06; z-score, replicate B = -0.28; z-score, replicate C = -0.15. With knock-down of PDIA6 (protein disulfide isomerase family A member 6), the record shows mean z-score -0.08; z-score, replicate A = 0.18; z-score, replicate B = -0.24; z-score, replicate C = -0.18. FOXL2NB (FOXL2 neighbor) showed mean z-score -1.93; z-score, replicate A = -1.75; z-score, replicate B = -2.13; z-score, replicate C = -1.92. Knock-down of VSTM2B (V-set and transmembrane domain containing 2B) resulted in: mean z-score -0.69; z-score, replicate A = -0.82; z-score, replicate B = -0.86; z-score, replicate C = -0.39.

Against CCDC24 (coiled-coil domain containing 24), the entry reads mean z-score 0.63; z-score, replicate A = -0.22; z-score, replicate B = 0.93; z-score, replicate C = 1.2. ZNF280C (zinc finger protein 280C) showed mean z-score 0.07; z-score, replicate A = -0.01; z-score, replicate B = 0.25; z-score, replicate C = -0.03. Against TMEM108 (transmembrane protein 108) the deposit lists mean z-score -0.98; z-score, replicate A = -1.19; z-score, replicate B = -0.98; z-score, replicate C = -0.78. For KCNQ1 (potassium voltage-gated channel subfamily Q member 1), the entry reads mean z-score -0.87; z-score, replicate A = -0.89; z-score, replicate B = -0.74; z-score, replicate C = -0.98. Depletion of NKX3-1 (NK3 homeobox 1) resulted in: mean z-score -0.42; z-score, replicate A = -0.22; z-score, replicate B = -0.45; z-score, replicate C = -0.6. Against RHPN1-AS1 (RHPN1 antisense RNA 1) the deposit lists mean z-score 1.26; z-score, replicate A = 1.59; z-score, replicate B = 1.54; z-score, replicate C = 0.63.

Sorted by “z-score, replicate C” (high to low): some entries from above.
TMEM108 (transmembrane protein 108): mean z-score = -0.98; z-score, replicate A = -1.19; z-score, replicate B = -0.98; z-score, replicate C = -0.78
KCNQ1 (potassium voltage-gated channel subfamily Q member 1): mean z-score = -0.87; z-score, replicate A = -0.89; z-score, replicate B = -0.74; z-score, replicate C = -0.98
